PubChem BioAssay AID652162 (Broad Institute, 2013)
The list shows a part of the results, in another mix than the full data. Some structures show a salt or complex split into parts, the way the source records it. Active and inactive are the calls of the source. No stated cut-off is given here; in the data, active means inhibition above about 10%; inactive means the rest.

Biological target: Toxin B (Clostridioides difficile) (UniProt P18177)
Experiment: TcdB glycohydrolase inhibitors, primary screen, biochemical, single point, plate reader (AID 652162)
Settings: TcdB glycohydrolase enzymatic assay, at 9.99 µM, stronger effect = higher value

Row | Compound | inhibition
1 | CCOC(=O)c1ccc(NP(C)(=O)Oc2ccc(Cl)cc2)cc1 (stereo not drawn) | inactive: -0.099%
2 | Nc1ccc2c(ccc3cccnc32)n1.O=[N+]([O-])c1cc([N+](=O)[O-])c(O)c([N+](=O)[O-])c1 | inactive: -2.86%
3 | CN(C)C(=O)c1c([N+](=O)[O-])cc([N+](=O)[O-])cc1[N+](=O)[O-] | inactive: 1.38%
4 | COc1ccccc1OP(C)(=O)Nc1ccccc1Br (stereo not drawn) | inactive: 2.82%
5 | CCc1ccc(OP(C)(=O)Nc2cccnc2)cc1 (stereo not drawn) | inactive: 0.712%
6 | O=C(OCCCN1CCCC1)C(O)(c1ccccc1)C1CCCCC1 (stereo not drawn) | inactive: 0.434%
7 | O=[N+]([O-])c1cc([N+](=O)[O-])c(Nc2ccccn2)c([N+](=O)[O-])c1 | inactive: -0.027%
8 | COc1ccccc1OP(C)(=O)Nc1ccc(Br)cc1 (stereo not drawn) | inactive: 0.755%
9 | CP(=O)(OCCOc1ccccc1)OCCOc1ccccc1 | inactive: 4.54%
10 | CP(=O)(Nc1ccc(Cl)cc1Cl)Oc1ccccc1 (stereo not drawn) | inactive: -0.402%
11 | CCCCCCCCCCCCCCCC1C[N+](C)(C)CCOP(C)(=O)O1 (stereo not drawn) | inactive: 1.08%
12 | O=C1C(O)=C([N+](=O)[O-])C(=O)C(O)=C1[N+](=O)[O-] | inactive: 1.08%
13 | Cc1cc(C)cc(OP(C)(=O)Nc2cccc(C(F)(F)F)c2)c1 (stereo not drawn) | inactive: 2.17%
14 | O=[N+]([O-])c1cc([N+](=O)[O-])c(OC2CCCCC2O)c([N+](=O)[O-])c1 (stereo not drawn) | inactive: 1.1%
15 | CCCCCOc1ccc(NP(C)(=O)Oc2ccc(Cl)cc2Cl)cc1 (stereo not drawn) | inactive: 0.44%
16 | Cc1c([N+](=O)[O-])cc([N+](=O)[O-])c(Br)c1[N+](=O)[O-] | inactive: -2%
17 | COc1ccc(OP(C)(=O)Nc2ccc(SC(F)(F)F)cc2)cc1 (stereo not drawn) | inactive: 3.72%
18 | CCN(CC)CCCNc1ccccc1[N+](=O)[O-].O=[N+]([O-])c1cc([N+](=O)[O-])c(O)c([N+](=O)[O-])c1 | inactive: -0.162%
19 | COc1ccc2c(c1O)-c1c(O)c(OC)cc3c1[C@H](C2)[N+](C)(C)CC3.O=[N+]([O-])c1cc([N+](=O)[O-])c([O-])c([N+](=O)[O-])c1[O-] | inactive: -9.38%
20 | O=C(OCCN1CCN(CCOCc2ccccc2)CC1)C(O)(c1ccccc1)c1ccccc1 | inactive: 0.951%
21 | O=C(OC1CN2CCC1CC2)c1ccc([N+](=O)[O-])cc1 (stereo not drawn) | inactive: -0.046%

Row | Compound | inhibition
22 | CC(C)c1ccc(OP(C)(=O)Nc2ccc(SC(F)(F)F)cc2)cc1 (stereo not drawn) | inactive: 0.851%
23 | CP(=O)(Nc1ccccc1F)Oc1ccccc1 (stereo not drawn) | inactive: 1.03%
24 | O=[N+]([O-])c1cc([N+](=O)[O-])c(Nc2ccc(Cl)cc2)c([N+](=O)[O-])c1 | inactive: 0.887%
25 | O=[N+]([O-])c1cc([N+](=O)[O-])c(C(F)(F)F)c([N+](=O)[O-])c1O | inactive: -1.19%
26 | CCOP(=O)(CC)OCC | inactive: -0.737%
27 | CP(=O)(Nc1ccc(SC(F)(F)F)cc1)Oc1ccc(F)cc1 (stereo not drawn) | inactive: 2.4%
28 | Cc1c(C(c2ccc3c(c2)OCO3)c2c(C)n(C)n(-c3ccccc3)c2=O)c(=O)n(-c2ccccc2)n1C.O=[N+]([O-])c1cc([N+](=O)[O-])c(O)c([N+](=O)[O-])c1 | inactive: 1%
29 | O=[N+]([O-])c1cc([N+](=O)[O-])c(NCC2CCS(=O)(=O)C2)c([N+](=O)[O-])c1 (stereo not drawn) | inactive: 1.15%
30 | Cc1cc(-c2cccc3ccccc23)c(C)cn1.O=[N+]([O-])c1cc([N+](=O)[O-])c(O)c([N+](=O)[O-])c1 | inactive: 2.73%
31 | O=[N+]([O-])c1ccc(OP2(=O)COCCO2)cc1 (stereo not drawn) | inactive: 0.77%
32 | COc1ccc(NP(C)(=O)Oc2ccccc2OC)cc1 (stereo not drawn) | inactive: 0.803%
33 | CCCOc1ccc(NP(C)(=O)Oc2ccc(Cl)cc2)cc1 (stereo not drawn) | inactive: 1.11%
34 | COc1ccc(-c2ccccn2)cc1.O=[N+]([O-])c1cc([N+](=O)[O-])c(O)c([N+](=O)[O-])c1 | inactive: -2.01%
35 | CN1CCCCC1COC(=O)C1(O)c2ccccc2CCc2ccccc21 (stereo not drawn) | inactive: 0.976%
36 | O=[N+]([O-])c1cc([N+](=O)[O-])c(Nc2nnnn2CCO)c([N+](=O)[O-])c1 | inactive: -0.134%
37 | CCOC(=O)C(CC)C1=NC(C)(C)Cc2ccccc21.O=[N+]([O-])c1cc([N+](=O)[O-])c(O)c([N+](=O)[O-])c1 (stereo not drawn) | inactive: -0.958%
38 | O=[N+]([O-])c1cc([N+](=O)[O-])c(-c2cnn(-c3ccccc3)c2)c([N+](=O)[O-])c1 | inactive: 1.02%
39 | CN(Cc1cccnc1)C(=O)COc1ccc(Cl)c(Cl)c1.O=[N+]([O-])c1cc([N+](=O)[O-])c(O)c([N+](=O)[O-])c1 | inactive: -1.84%
40 | O=[N+]([O-])c1cc([N+](=O)[O-])c(-n2nnc3ccccc32)c([N+](=O)[O-])c1 | inactive: 2.05%
41 | CP(=O)(Nc1cccc(Br)c1)Oc1ccccc1 (stereo not drawn) | inactive: 1%
42 | Cc1cc(C)cc(OP(C)(=O)Nc2ccccn2)c1 (stereo not drawn) | inactive: 1.52%

Row | Compound | inhibition
43 | Cc1cc(C)cc(OP(C)(=O)Nc2ccc(C)cc2C)c1 (stereo not drawn) | inactive: -2.62%
44 | CCOC(=O)c1ccc(NP(C)(=O)Oc2cc(C)cc(C)c2)cc1 (stereo not drawn) | inactive: 1.04%
45 | COc1ccccc1OP(C)(=O)Nc1cccc(Br)c1 (stereo not drawn) | inactive: 0.421%
46 | O=C(O)c1cccc(Nc2c([N+](=O)[O-])cc([N+](=O)[O-])cc2[N+](=O)[O-])c1 | inactive: -0.486%
47 | COc1ccccc1OP(C)(=O)Nc1cc(Cl)ccc1C (stereo not drawn) | inactive: 0.918%
48 | Cc1cc(C)cc(OP(C)(N)=O)c1 (stereo not drawn) | inactive: 1.05%
49 | CC(C)(C)c1ccc(OP(C)(=O)Nc2ccc(SC(F)(F)F)cc2)cc1 (stereo not drawn) | inactive: 0.76%
50 | Cc1cccc(C)c1OP(C)(N)=O (stereo not drawn) | inactive: 1.01%
51 | O=[N+]([O-])c1ccc2c(c1)C=Nc1ccccc1O2 | inactive: 7.35%
52 | O=[N+]([O-])c1cc([N+](=O)[O-])c(Nc2cccnc2)c([N+](=O)[O-])c1 | inactive: 0.748%
53 | COc1ccccc1-c1ccccn1.O=[N+]([O-])c1cc([N+](=O)[O-])c(O)c([N+](=O)[O-])c1 | inactive: -1.91%
54 | CCN(CC)CCCOC(=O)C(O)(c1ccccc1)c1ccccc1 | inactive: 0.99%
55 | CP(=O)(Nc1ccccn1)Oc1ccc(Cl)cc1 (stereo not drawn) | inactive: 1.57%
56 | CCOC(=O)c1ccc(NP(C)(=O)Oc2ccc(OC)cc2)cc1 (stereo not drawn) | inactive: 0.564%
57 | O=[N+]([O-])c1cc([N+](=O)[O-])c(O)c([N+](=O)[O-])c1.c1ccc(Oc2ccncc2)cc1 | inactive: -1.36%
58 | CCc1ccc(OP(C)(=O)N2CCN(c3ccc([N+](=O)[O-])cc3)CC2)cc1 (stereo not drawn) | inactive: -0.382%
59 | CP(=O)(NC(=O)Nc1ccccc1)Oc1ccccc1 (stereo not drawn) | inactive: 0.345%
60 | CP(=O)(Nc1ccc(SC(F)(F)F)cc1)Oc1ccc(Cl)cc1 (stereo not drawn) | inactive: 0.621%
61 | CP(=O)(Oc1ccccc1)OC(c1ccccc1)C(F)(F)F (stereo not drawn) | inactive: 0.655%
62 | COc1ccccc1OP(C)(=O)Nc1ccccc1 (stereo not drawn) | inactive: 0.725%
63 | CP(=O)(Nc1ccccc1Br)Oc1ccccc1 (stereo not drawn) | inactive: 4.67%
